Results of unrelated studies side by side (data: NIAID ChemDB).

Common to all: growth or infection tests; species: HIV-1; method: p24; read-out: fold resistance

Rows are shuffled and stem from different studies. Fold resistance has wild type as its base. An empty or dashed field is not shown.

structure | cell line | mutations | strain or isolate | result
Cc1cccc(C)c1CNC(=O)[C@H]1N(C(=O)[C@@H](O)C[C@@H](Cc2ccccc2)C(=O)N[C@H]2c3ccccc3C[C@H]2O)CSC1(C)C | MT-4 | PR-K60C | - | 4
CC(C)(C)OC(=O)N[C@@H](Cc1ccccc1)[C@H](O)CNC[C@@H](O)[C@H](Cc1ccc(OCC(=O)N2CCOCC2)cc1)NC(=O)OC(C)(C)C | MT-2 | PR-V82A | NL4-3 | 4
Cc1ccccc1Cc1cccc(C(=O)CC(=O)C(=O)O)c1 | - | INTG-S153Y N155S | - | 70
O=c1[nH]cnc2c1ncn2[C@H]1CC[C@@H](CO)O1 | MT-4 | RT-T69SSS L210W T215Y | XM-T69SSS | 1.3
Nc1ncnc2c1ncn2[C@@H]1O[C@H](CO)C[C@@H]1F | MT-2 | RT-Q151M | Q151M(RT-Q151M) | 0.9
CCc1cc(NCc2nc3c(Cl)ccc(Cl)c3o2)c(=O)[nH]c1C | MT-4 | RT-P236L | DLV-resistant MF (RT-P236L) | 3.91
Cc1cn([C@H]2C[C@H](N=[N+]=[N-])[C@@H](CO)O2)c(=O)[nH]c1=O | MT-2 | RT-L74V | L74V(RT-L74V) | 1
Nc1nc(=O)n([C@@H]2CO[C@H](CO)S2)cc1F | PBMC | RT-K65R | HXB2D (RT-K65R) | 3.83
Cc1ccncc1-c1ccc(C[C@H](C[C@H](O)CN2CCN(Cc3ccc(-c4ccc(Cl)cc4)o3)C[C@H]2C(=O)NCC(F)(F)F)C(=O)N[C@H]2c3ccccc3OC[C@H]2O)o1 | MT-4 | PR-M46I L63P V82T I84V | 4X (PR M46I L63P V82T I84V) | 2
Nc1nc(=O)n([C@H]2CO[C@@H](CO)S2)cc1F | PBMC | RT-M184V | HXB2D (RT-M184V) | 0.667
Cc1occc1C(=S)Nc1ccc(Cl)c(/C=N/OC(C)(C)C)c1 | CEM | RT-V106A | IIIB | 2.6
O=c1[nH]cnc2c1ncn2[C@H]1CC[C@@H](CO)O1 | MT-2 | RT-T215Y | T215Y(RT-T215Y) | 1.8
CC(C)(C)NC(=O)[C@@H]1C[C@@H]2CCCC[C@@H]2CN1C[C@@H](O)[C@H](Cc1ccccc1)NC(=O)[C@H](CC(N)=O)NC(=O)c1ccc2ccccc2n1 | MT-4 | PR-L10F M46I I84V | NL4-3.C7 (PR L10F M46I I84V) | 1
C[C@@H](NC(=S)Nc1ccc(Br)cn1)c1cccc2ccccc12 | PBMC | RT-Y181C | A17 | 105
CCc1cc(NCc2nc3c(Cl)ccc(Cl)c3o2)c(=O)[nH]c1C | MT-4 | RT-K103N Y181C | NL4-3 | >30
Cc1cn([C@H]2C[C@H](N=[N+]=[N-])[C@@H](CO)O2)c(=O)[nH]c1=O | PBMC | RT-T69SSS L210W T215Y | XM-T69SSS | 470
CC(C)Nc1cccnc1N1CCN(C(=O)c2cc3cc(NS(C)(=O)=O)ccc3[nH]2)CC1 | PBMC | - | 458 clinical isolates delavirdine-resistant | 77
Nc1ccn([C@H]2CC[C@@H](CO)O2)c(=O)n1 | MT-4 | RT-I50T | HXB2-D50(RT-I50T) | 1.07
C[C@@H](NC(=S)Nc1ccc(Cl)cn1)c1cccc2ccccc12 | PBMC | RT-K103N Y181C | A17V(RT-K103N Y181C) | 73.4
O=C(NCc1ccc(F)cc1)c1nc(N2CCCCS2(=O)=O)c2cccnc2c1O | - | INTG-T66I M154I | - | 1.6
Nc1ccn([C@H]2CC[C@@H](CO)O2)c(=O)n1 | MT-4 | RT-K65R | HXB2D (RT-K65R) | 12.4
Nc1ccn([C@@H]2CO[C@H](CO)S2)c(=O)n1 | PBMC | RT-M184V | HXB2D (RT-M184V) | 0.53
Cc1cn([C@H]2C[C@H](N=[N+]=[N-])[C@@H](CO)O2)c(=O)[nH]c1=O | MT-2 | RT-A360T | NL4-3 | 1.17
Cc1cn([C@H]2C[C@H](N=[N+]=[N-])[C@@H](CO)O2)c(=O)[nH]c1=O | PBMC | - | 472 clinical isolates AZT-resistant | 4.67
Cc1csc(NC(=S)N[C@H](C)c2cccc3ccccc23)n1 | PBMC | RT-K103N Y181C | A17V(RT-K103N Y181C) | 10.4
C[C@@H]1O[C@@H]2OCCC[C@@H]2[C@@H]1OC(=O)N[C@@H](Cc1ccccc1)[C@H](O)CN1C[C@H]2CCCC[C@H]2C[C@H]1C(=O)NC(C)(C)C | PBMC | PR-L10I K14R R41K M46I I54V L63P A71V V82A L90M I93L | TM | >42
Cc1cn([C@H]2C[C@H](N=[N+]=[N-])[C@@H](CO)O2)c(=O)[nH]c1=O | PBMC | RT-M184V | 3TC-resistant (RT M184V) Clinical isolate | 0.4
CC(C)OC(=O)OCOP(=O)(CO[C@H](C)Cn1cnc2c(N)ncnc21)OCOC(=O)OC(C)C | MT-2 | RT-K103N Y181C | A17 | 0.0474
Cc1cn([C@@H]2O[C@H](CO[Si](C)(C)C(C)(C)C)C3(OS(=O)(=O)C=C3N)[C@H]2O[Si](C)(C)C(C)(C)C)c(=O)n(C)c1=O | CEM | RT-M184V | IIIB | 0.792
[N-]=[N+]=N[C@H]1C[C@H](n2ccc(N)nc2=O)O[C@@H]1CO | MT-2 | RT-D67N K70N T215F K219Q | AZT-resistant (RT D67N K70R T215F K219Q) | 10.7
Nc1nc2c(ncn2[C@H]2CO[C@@H](CO)O2)c(=O)[nH]1 | MT-2 | RT-D67N K70R T215Y K219Q | LAI | 2.1
CC(C)c1nc(CN(C)C(=O)N[C@H](C(=O)N[C@@H](Cc2ccccc2)C[C@H](O)[C@H](Cc2ccccc2)NC(=O)OCc2cncs2)C(C)C)cs1 | PBMC | PR-L10I K43T M46L I54L L63P A71T V82A L90M Q92K | Clinical isolate | >23
CC(C)c1nc(CN(C)C(=O)N[C@H](C(=O)N[C@@H](Cc2ccccc2)C[C@H](O)[C@H](Cc2ccccc2)NC(=O)OCc2cncs2)C(C)C)cs1 | MT-4 | PR-D30N | NL4-3 | 0.2
CC(C)CN(C[C@@H](O)[C@H](Cc1ccccc1)NC(=O)O[C@@H]1[C@@H]2CCCO[C@@H]2O[C@H]1C)S(=O)(=O)c1ccc(N)cc1 | PBMC | PR-L10I K14R R41K M46I I54V L63P A71V V82A L90M I93L | TM | 10
CC(C)(C)NC(=O)[C@@H]1CN(Cc2cccnc2)CCN1C[C@@H](O)C[C@@H](Cc1ccccc1)C(=O)N[C@H]1c2ccccc2C[C@H]1O | PBMC | PR-L10I I15V E35D N37E K45R I54V L63P A71V V82T L90M I93L C95F | Clinical isolate | 37.7
CC(C)(C)NC(=O)[C@@H]1C[C@@H]2CCCC[C@@H]2CN1C[C@@H](O)[C@H](Cc1ccccc1)NC(=O)[C@H](CC(N)=O)NC(=O)c1ccc2ccccc2n1 | MT-4 | PR-I84V | NL4-3 | 2
CC(C)CN(C[C@@H](O)[C@H](Cc1ccccc1)NC(=O)O[C@H]1CCOC1)S(=O)(=O)c1ccc(N)cc1 | PBMC | PR-L10I K43T M46I I54V L63P A71V V82A L90M Q92K | MM | 27
Cc1cn([C@H]2C[C@H](N=[N+]=[N-])[C@@H](CO)O2)c(=O)[nH]c1=O | PBMC | RT-T215Y K219Q | - | 8.5
CC(C)=CCN1Cc2cc(Cl)cc3[nH]c(=S)n(c23)C[C@@H]1C | CEM | RT-L100I | IIIB | 85
Cc1cn([C@H]2C=C[C@@H](CO)O2)c(=O)[nH]c1=O | MT-2 | 1 (Δ.67+T69G+K103N) | RT Δ.67 T69G K103N | 4.1
COc1ccc2c(c1)N(C(=O)OC(C)C)[C@@H](CSC)C(=S)N2 | CEM | RT-M184I | IIIB | 1
CC(C)CN(C[C@@H](O)[C@H](Cc1ccccc1)NC(=O)[C@H](CC(N)=O)NC(=O)c1ccc2ccccc2n1)C(=O)NC(C)(C)C | MT-4 | PR-L10R M46I L63P 184V | NL4-3 | 7.5
Cc1cn([C@H]2C[C@H](N=[N+]=[N-])[C@@H](CO)O2)c(=O)[nH]c1=O | PBMC | RT-L74V V106A T215Y | RT multidrug-resistant (L74V V106A T215Y) | 13.8
O=c1[nH]cnc2c1ncn2[C@H]1CC[C@@H](CO)O1 | MT-2 | 1 (Δ.67+T69G+K103N) | RT Δ.67 T69G K103N | 1.6
Cc1cn([C@H]2C[C@H](N=[N+]=[N-])[C@@H](CO)O2)c(=O)[nH]c1=O | MT-2 | RT-L74V | LAI | 1.9
Cc1cn([C@H]2C[C@H](N=[N+]=[N-])[C@@H](CO)O2)c(=O)[nH]c1=O | PBMC | RT-E89G | RT-M184V | 0.5
Cc1ccc(NC(=S)N[C@H](C)c2cccc3ccccc23)nc1 | PBMC | RT-L74V V106A T215Y | RT multidrug-resistant (L74V V106A T215Y) | 0.3

The last 5 rows once more:

structure | cell line | mutations | strain or isolate | result
Cc1cn([C@H]2C[C@H](N=[N+]=[N-])[C@@H](CO)O2)c(=O)[nH]c1=O | PBMC | RT-L74V V106A T215Y | RT multidrug-resistant (L74V V106A T215Y) | 13.8
O=c1[nH]cnc2c1ncn2[C@H]1CC[C@@H](CO)O1 | MT-2 | 1 (Δ.67+T69G+K103N) | RT Δ.67 T69G K103N | 1.6
Cc1cn([C@H]2C[C@H](N=[N+]=[N-])[C@@H](CO)O2)c(=O)[nH]c1=O | MT-2 | RT-L74V | LAI | 1.9
Cc1cn([C@H]2C[C@H](N=[N+]=[N-])[C@@H](CO)O2)c(=O)[nH]c1=O | PBMC | RT-E89G | RT-M184V | 0.5
Cc1ccc(NC(=S)N[C@H](C)c2cccc3ccccc23)nc1 | PBMC | RT-L74V V106A T215Y | RT multidrug-resistant (L74V V106A T215Y) | 0.3